Results of unrelated studies side by side (data: NIAID ChemDB).

Common to all: tests in culture; species: Candida tropicalis

Blank or dashed fields: not listed here. Zones are inhibition diameters on agar. A number after MIC or MFC names an inhibition level or a share of isolates. Conditions beyond the fields shown may differ between rows. Inhibition is in % at the dose shown (toxicity tests: loss of growth or viability).

structure | read by | setting | endpoint | strain | dose | result
O=C1N[C@H](Cc2ccccc2)C(=O)N2CCC[C@H]12 | agar diffusion / agar |  | zone | MTCC 184 | 32 µg/mL | 30 mm
Cc1ccc(C(=O)OC(CCn2ccnc2)c2ccccc2)cc1 | agar diffusion |  | zone |  | 1000 µg | 11 mm
CC1CC2=C(O1)c1ccccc1C(=O)C2=O | broth dilution |  | MIC | Clinical isolate |  | 32 µg/mL
Cn1c(=S)[nH]c2nc(-c3ccccn3)c(-c3ccccn3)nc2c1=O |  |  | zone |  | 250 mg/mL | 0 mm
CC(=O)OC[C@H]1O[C@@H](O[C@@H]2[C@@H](N=[N+]=[N-])[C@H](O)[C@H](O)[C@H]3OC(C)(C)O[C@H]32)[C@H](OC(C)=O)[C@@H](OC(C)=O)[C@H]1OC(C)=O | broth dilution / turbidity |  | inhibition | C 131 | 125 µg/mL | 17.82%
Nc1nc2nc(-c3ccccn3)c(-c3ccccn3)nc2c(=O)[nH]1 |  |  | zone |  | 500 mg/mL | 33 mm
CC(C)(O)c1cn(-c2ccc([N+](=O)[O-])cc2)nn1 | broth dilution |  | inhibition | URM 4262 | 2048 µg/mL | 0%
CC[C@@H]([C@H](C)O)n1ncn(-c2ccc(N3CCN(c4ccc(OC[C@@H]5CO[C@@](Cn6cncn6)(c6ccc(F)cc6F)C5)cc4)CC3)cc2)c1=O | broth dilution |  | MIC50 |  |  | 0.06 µg/mL
C=CCc1ccc(O)c(OC)c1 | turbidity |  | MIC90 | 2509 |  | 495 µg/mL
Nc1[nH]c(=O)nc2nc(-c3ccccn3)c(-c3ccccn3)nc12 |  |  | zone |  | 250 mg/mL | 24 mm
C[C@@H](c1ncncc1F)[C@](O)(Cn1cncn1)c1ccc(F)cc1F | broth dilution |  | MIC50 |  |  | 0.03 µg/mL
OC(Cn1cncn1)(Cn1cncn1)c1ccc(F)cc1F |  | 48 h | MIC50 | 65 isolates |  | 3.2 µg/mL
O=c1[nH]c(=O)c2nc(-c3ccccn3)c(-c3ccccn3)nc2[nH]1 |  |  | zone |  | 250 mg/mL | 15 mm
C[C@H]1[C@H](O)[C@@H](C)/C=C/C=C/C=C/C=C/C=C/C=C/C=C/[C@H](O[C@@H]2O[C@H](C)[C@@H](O)[C@H](N)[C@@H]2O)C[C@@H]2O[C@](O)(C[C@@H](O)C[C@@H](O)CC[C@H](O)[C@@H](O)C[C@@H](O)CC(=O)O[C@H]1C)C[C@H](O)[C@H]2C(=O)O | agar diffusion / agar |  | zone | MTCC 184 | 2 µg/mL | 16 mm
O=C(OC(CCn1ccnc1)c1ccccc1)c1ccc(Cl)s1 | agar diffusion |  | zone |  | 1000 µg | 14 mm
CC(C)(O)c1cn(-c2ccccc2)nn1 | broth dilution |  | inhibition | URM 4790 | 2048 µg/mL | 0%
OC(Cn1cncn1)(Cn1cncn1)c1ccc(F)cc1F | agar diffusion |  | zone |  | 1000 µg | 16 mm
Clc1nccc2nc(-c3ccccn3)c(-c3ccccn3)nc12 |  |  | zone |  | 500 mg/mL | 35 mm
O=C(OC(CCn1ccnc1)c1ccccc1)c1ccco1 | agar diffusion |  | zone |  | 1000 µg | 17 mm
CC(C)(O)c1cn(-c2ccc3ccccc3c2)nn1 | broth dilution |  | inhibition | URM 916 | 2048 µg/mL | 0%

Repeating the final 2 entries:

{"structure": "O=C(OC(CCn1ccnc1)c1ccccc1)c1ccco1", "read by": "agar diffusion", "endpoint": "zone", "dose": "1000 µg", "result": "17 mm"}
{"structure": "CC(C)(O)c1cn(-c2ccc3ccccc3c2)nn1", "read by": "broth dilution", "endpoint": "inhibition", "strain": "URM 916", "dose": "2048 µg/mL", "result": "0%"}